Source: paper PMC6712002, “Comprehensive in vitro characterization of PD-L1 small molecule inhibitors” (Scientific Reports, 2019)

Test system: peripheral blood mononuclear cells (PBMCs)
Assay: IL-2 production by SEB-stimulated PBMCs (ELISA)
Format: cell-based, human
Conditions: Compound A treatment

SMILES: Cc1ccc2ccccc2c1CN1CCN(c2c([N+](=O)[O-])c(=O)n(C)c3ccccc23)CC1 [Compound A]
- fold production of IL-2: 2 fold
